Pooled drug test results. Numbers come from NIAID ChemDB, via PubChem.

Common to all: growth or infection tests; species: Aspergillus flavus; read by: broth dilution; read-out: MIC

Lines come from different laboratories, so protocols vary.

compound,strain,value
CCCC[C@@H](C)/C=C(C)/C=C(\C)C(=O)N/C(=C/[C@@](C)(O)/C=C/C=C/C=C/C(=O)NC1=C(O)CCC1=O)C(=O)[C@@H]1CO1,2,200 µM
C[C@@H](c1ncncc1F)[C@](O)(Cn1cncn1)c1ccc(F)cc1F,CBS 625.66,0.5 µg/mL
CC(C)S(=O)(=O)N1CCN(c2cnn(-c3cc(F)cc(F)c3)c(=O)c2OC2CCC(F)C2)CC1,ND255,0.03 µg/mL
CCOC(=O)c1c(N)oc2ccc(O)cc12,KCCM 11899,25 µg/mL
Cc1nc2c(s1)C(=O)C(Nc1ccc(Br)cc1)=C(Cl)C2=O,KCCM 11899,12.5 µg/mL
CC(C)=CCCC(C)CCO,TISTR 3041,3600 µg/mL
CCOC(=O)c1c(N)oc2c1cc(O)c1sc(C)nc12,KCCM 11899,50 µg/mL
O=c1c(N2CCOCC2)c(N2CCN(S(=O)(=O)Cc3ccccc3)CC2)cnn1-c1ccccc1,ND83,3.13 µg/mL
Cc1ccc(NC2=C(Cl)C(=O)c3nc(C)sc3C2=O)cc1,KCCM 11899,12.5 µg/mL
Nc1[nH]c(=O)ncc1F,KCCM 11899,25 µg/mL
Cc1nc2c(s1)C(=O)C(Nc1ccccc1)=C(Cl)C2=O,KCCM 11899,12.5 µg/mL
C[C@H]1[C@H](O)[C@@H](C)/C=C/C=C/C=C/C=C/C=C/C=C/C=C/[C@H](O[C@@H]2O[C@H](C)[C@@H](O)[C@H](N)[C@@H]2O)C[C@@H]2O[C@](O)(C[C@@H](O)C[C@@H](O)CC[C@H](O)[C@@H](O)C[C@@H](O)CC(=O)O[C@H]1C)C[C@H](O)[C@H]2C(=O)O,22546,0.25 µg/mL
COc1cc(O)c(C(=O)O[C@@H]2C[C@@]3(C)C2=C(C=O)[C@@H](O)[C@@H]2CC(C)(C)C[C@@H]23)c(C)c1Cl,Plpa59,>250 µg/mL
COC(=O)c1c(N)oc2ccc(O)cc12,KCCM 11899,25 µg/mL
Cc1cc(O)cc(O)c1C(=O)O[C@@H]1C[C@]2(C)[C@@H]3[C@H](C=C(C=O)[C@]12O)CC(C)(C)[C@@H]3O,Plpa59,>250 µg/mL
CCc1c(OC)ccc2sc(C)nc12,KCCM 11899,>100 µg/mL